Paper PMC10249356 (Biochemistry, 2023)

Tests used:
[1] = test system: C/C(=C\C(=O)O)C(=O)SCCNC(=O)CCNC(=O)[C@H](O)C(C)(C)COP(=O)(O)OP(=O)(O)OC[C@H]1O[C@@H](n2cnc3c(N)ncnc32)[C@H](O)[C@@H]1OP(=O)(O)O; assay: purified protein; settings: 200 mM HEPES pH 7.5, 400 µM NADPH, 30 °C, apparent KM
[2] = test system: CC(C)(COP(=O)(O)OP(=O)(O)OC[C@H]1O[C@@H](n2cnc3c(N)ncnc32)[C@H](O)[C@@H]1OP(=O)(O)O)[C@@H](O)C(=O)NCCC(=O)NCCSC(=O)CCC(=O)O; assay: purified protein; settings: 200 mM HEPES pH 7.5, 400 µM NADPH, 30 °C, apparent KM

CdSucD (Clostridioides difficile R20291; K79R)
Km [1]: 144.3 ± 12.3 µM | kcat [1]: 0.5 ± 0.02 s⁻¹ | Km [2]: 38.6 ± 7.4 µM | kcat [2]: 7.3 ± 0.51 s⁻¹
